Laboratory results taken from paper PMC8406192.

Tested on: Nc1ncnc2c1ncn2[C@@H]1O[C@H](COP(=O)(O)OP(=O)(O)OP(=O)(O)O)[C@@H](O)[C@H]1O
Assay: purified protein
Settings: 20 mM Tris-HCl pH 7.5, 150 mM NaCl, 2 mM MgCl2, 15.7 nM dimer, 25°C, turnover per MMOB1670 subunit, no azide

dimer (unit complex) of F1-like ATPase, M. mobile gliding machinery (Mycoplasma mobile 163K)
Km: 74 µM
kcat: 0.18 molecules/s
